Results of unrelated studies side by side (data: NIAID ChemDB).

Common to all: whole-cell or culture tests; species: Human cytomegalovirus; read-out: EC50

ECn is the concentration giving n% inhibition of infection, replication or growth.

smiles	cell line	read by	strain	result
Cc1cc(C)cc(Cn2c(=O)c(C)cn(Cc3ccccc3)c2=O)c1			AD169	12 µM
C=C1CN(S(=O)(=O)c2ccc(C)cc2)CCCN(Cc2ccccc2)CCCN(S(=O)(=O)c2ccc(C)cc2)C1			AD169	30 µg/mL
CC(=O)Nc1ccc(Nc2cc(S(=O)(=O)O)c(N)c3c2C(=O)c2ccccc2C3=O)cc1	MRC-5	luciferase		205 µM
O=c1ccn(Cc2ccccc2)c(=O)n1-c1ccccc1			AD169	>180 µM
Nc1ccnc2c1ncn2[C@H]1C[C@H](O)[C@@H](COP(=O)(O)COC(=O)[C@@H](N)CC(=O)O)O1	HEL		AD169	>100 µM
O=c1ccn(Cc2ccccc2)c(=O)n1Cc1ccccc1			AD169	24 µM
CC(C)Nc1nc2cc(Cl)c(Cl)cc2n1[C@@H]1C[C@@H](O)[C@H](CO)O1	MRC-5	hybridisation	AD169	0.17 µM
Cc1ccc(S(=O)(=O)NC(N)=NCCC[C@H](NC(=O)OCc2cc(C)ccc2C)C(=O)N[C@H](C(=O)NC(/C=[N+](/C)[O-])CC(C)C)C(C)C)cc1				0.007 µM
Cc1cc(C)cc(Cn2c(=O)ccn(Cc3c(F)cccc3F)c2=O)c1			AD169	>42 µM
O=C(NCCc1c[nH]c2ccccc12)C1=Cc2ccncc2CC1	HFF	virus yield	TOWNE	8.9 µM
Nc1nncc2c1c(Br)cn2[C@@H]1O[C@H](CO)[C@@H](O)[C@H]1O	HFF	virus yield	TOWNE	<2.2 µM
Nc1nccc2c1ncn2[C@H]1C[C@H](O)[C@@H](CO)O1	HEL		DAVIS	>100 µM
OC[C@@H]1O[C@H](n2c(Br)nc3cc(Cl)c(Cl)cc32)C[C@H]1O	MRC-5	hybridisation	AD169	26 µM
O=c1ccn(Cc2c(F)cccc2F)c(=O)n1Cc1c(F)cccc1F			AD169	>14 µM
CC(C)(C)C(=O)OCOC(=O)CN(CC(=O)OCOC(=O)C(C)(C)C)P(=O)(OC[C@H]1O[C@@H](n2cnc3c(N)ccnc32)C[C@@H]1O)Oc1ccccc1	HEL		AD169	>20 µM
OC[C@@H]1O[C@H](n2c(NC3CC3)nc3cc(Cl)c(Cl)cc32)C[C@H]1O	MRC-5	hybridisation	AD169	0.17 µM
CC(C)(C)C(=O)OCOC(=O)CN(CC(=O)OCOC(=O)C(C)(C)C)P(=O)(OC[C@H]1O[C@@H](n2cc(/C=C/Br)c(=O)[nH]c2=O)C[C@@H]1O)Oc1ccccc1	HEL		DAVIS	>20 µM
C[C@H]1O[C@@H](n2c(NC3CC3)nc3cc(Cl)c(Cl)cc32)[C@H](O)[C@@H]1O	MRC-5		AD169	1.1 µM

Again, the opening 3 rows:

{"smiles": "Cc1cc(C)cc(Cn2c(=O)c(C)cn(Cc3ccccc3)c2=O)c1", "strain": "AD169", "result": "12 µM"}
{"smiles": "C=C1CN(S(=O)(=O)c2ccc(C)cc2)CCCN(Cc2ccccc2)CCCN(S(=O)(=O)c2ccc(C)cc2)C1", "strain": "AD169", "result": "30 µg/mL"}
{"smiles": "CC(=O)Nc1ccc(Nc2cc(S(=O)(=O)O)c(N)c3c2C(=O)c2ccccc2C3=O)cc1", "cell line": "MRC-5", "read by": "luciferase", "result": "205 µM"}

Neighbouring rows are from separate reports. Blank or dashed fields: not listed here.